The record followed here is paper PMC8175350, “Drug repurposing screens identify chemical entities for the development of COVID-19 interventions” (Nature Communications, 2021).

Where a name gives a salt, the structure may show the parent alone. Read-outs that look alike come from different tables or passages of the source. Some results are limits rather than exact numbers.

Common to all, as to assay type: cell-based
For data set [1], the system named is SARS-CoV-2.
For data set [2], the system named is SARS-CoV-2. Particulars: TOA EC50 / HeLa-ACE2 EC50.
The test system of data set [3] is SARS-CoV-2. This is another data set of the same source.
Setting [4] is: selectivity index, uninfected HeLa-ACE2 CC50 / SARS-CoV-2 EC50.
The mark [5] stands for this setting: selectivity index, uninfected Calu-3 CC50 / SARS-CoV-2 EC50.
Where [6] appears, read: selectivity index, uninfected Calu-3 CC50 / Calu-3 SARS-CoV-2 EC50.
Setting [7] is: selectivity index, uninfected HeLa-ACE2 CC50 vs HeLa-ACE2 SARS-CoV-2 EC50.
[8] abbreviates: selectivity index, uninfected Calu-3 CC50 vs Calu-3 SARS-CoV-2 EC50.
The mark [9] stands for this setting: selectivity index, uninfected HeLa-ACE2 CC50 / HeLa-ACE2 SARS-CoV-2 EC50.

In the case of `Nc1ncnc2c1nc(Cl)n2[C@@H]1O[C@H](CO)[C@@H](O)[C@H]1O` [8-Chloroadenosine], in data set [1] (setting [4]), the “HeLa-ACE2 SI” value is given as > 12.80. Further, the “TOA:HeLa-ACE2 EC50 Ratio” value in data set [2] was found to be 1.151. In addition, the “Calu-3 SI” value in data set [3] (setting [5]) is > 5.62.

As to `CCc1ccc(C2=CC(C)(C)Sc3ccc(C#Cc4ccc(C(=O)O)cc4)cc32)cc1` [AGN-194310], the “Calu-3 SI” value in data set [3] (setting [6]) is listed as > 50.05.

On to `CC/C(=C(/c1ccc(/C=C/C(=O)O)cc1)c1ccc2[nH]ncc2c1)c1ccc(F)cc1Cl` [ARN-810], for which the “HeLa-ACE2 SI” value in data set [1] (setting [7]) came out at 1.14. Besides, in data set [3] (setting [8]), the “Calu-3 SI” value was > 21.61.

Take `CCOc1ccc(Cc2nc3cc(N(C)S(=O)(=O)c4cccs4)ccc3n2CC2CCCCC2)nc1` [AZ-11713908]: the “HeLa-ACE2 SI” value in data set [1] is 3.44. For the same molecule, in data set [3] (ratio CC50 / EC50), the “Calu-3 SI” value was > 8.45.

For `C=CC(=O)Nc1cc(Nc2nccc(-c3cn(C)c4ccccc34)n2)c(OC)cc1N(C)CCN(C)C` [AZD-9291/Osimertinib], the “HeLa-ACE2 SI” value in data set [1] (setting [4]) is on record as > 18.79. Further, the “TOA:HeLa-ACE2 EC50 Ratio” value in data set [2] came to 8.157. Further, in data set [3] (setting [5]), the “Calu-3 SI” value is on record as < 1.07.

On to `CCCCCC[C@H]1C(=O)O[C@H](C)[C@H](NC(=O)c2cccc(NC=O)c2O)C(=O)O[C@@H](C)[C@@H]1OC(=O)CC(C)C` [Antimycin A], for which the “Calu-3 SI” value in data set [3] (ratio CC50 / EC50) is on record as > 20.81.

For `Cc1cccc(/C=N/Nc2cc(N3CCOCC3)nc(OCCc3ccccn3)n2)c1` [Apilimod - control], the “HeLa-ACE2 SI” value in data set [1] (setting [4]) was > 1018.85.

As to `C=Cc1cc(C(=O)Nc2ccc(C(=N)N)cc2)c(-c2ccc(C(=O)NCC3CC3)nc2C(=O)O)cc1OC` [Avoralstat], in data set [3] (ratio CC50 / EC50), the “Calu-3 SI” value is listed as > 77.16.

Turning to `O=c1[nH]c2ccc(C(F)(F)F)cc2c(-c2cc(Cl)ccc2O)c1CCO` [BMS-223131], the “HeLa-ACE2 SI” value in data set [1] (setting [7]) worked out at 2.23. In data set [3] (setting [8]), the “Calu-3 SI” value is reported as > 5.81.

Consider `COC(=O)[C@]12CCC(C)(C)C[C@H]1[C@H]1C(=O)C=C3[C@@]4(C)C=C(C#N)C(=O)C(C)(C)[C@@H]4CC[C@@]3(C)[C@]1(C)CC2` [Bardoxolone methyl], for which the “HeLa-ACE2 SI” value in data set [1] (setting [9]) is recorded as 5.73. For the same molecule, the “Calu-3 SI” value in data set [3] (setting [6]) came out at 38.51.

As for `COC(=O)[C@@]12OC[C@]34[C@H]([C@@H](O)[C@@H]1O)[C@@]1(C)CC(=O)C(O)=C(C)[C@@H]1C[C@H]3OC(=O)[C@H](OC(=O)/C=C(\C)C(C)C)[C@@H]24` [Bruceantin], the “HeLa-ACE2 SI” value in data set [1] is reported as < 20.18. Also, the “Calu-3 SI” value in data set [3] (ratio CC50 / EC50) was found to be 49.86.

For the molecule `COc1ccc2c(c1)[C@]1(C[C@H]1c1ccc3c(/C=C/c4ccc(CN5C[C@@H](C)O[C@@H](C)C5)cc4)n[nH]c3c1)C(=O)N2` [CFI-400945], the “HeLa-ACE2 SI” value in data set [1] (setting [4]) is listed as < 1.02. For the same molecule, in data set [2], the “TOA:HeLa-ACE2 EC50 Ratio” value was determined as 0.653. Moreover, the “Calu-3 SI” value in data set [3] (setting [5]) is reported as > 5.88.

Regarding `CN(C)C(=O)COC(=O)Cc1ccc(OC(=O)c2ccc(NC(=N)N)cc2)cc1` [Camostat mesylate], the “Calu-3 SI” value in data set [3] (setting [6]) was > 556.36.

Consider `CC[C@H]1CN2CCc3cc(OC)c(OC)cc3[C@@H]2C[C@@H]1C[C@H]1NCCc2cc(O)c(OC)cc21` [Cephaeline], for which the “HeLa-ACE2 SI” value in data set [1] is reported as 12.66. Further, in data set [3] (ratio CC50 / EC50), the “Calu-3 SI” value is > 34.90.

Take `COCc1c(C(C)C)nc(C(C)C)c(/C=C/[C@@H](O)C[C@@H](O)CC(=O)O)c1-c1ccc(F)cc1` [Cerivastatin sodium]: in data set [1] (setting [9]), the “HeLa-ACE2 SI” value came out at 0.0321. For the same molecule, in data set [3] (setting [6]), the “Calu-3 SI” value is > 85.72.

Take `C[C@@H]1C[C@@H]([C@H](O)CC2CC(=O)NC(=O)C2)C(=O)[C@@H](C)C1` [Cycloheximide]: in data set [1], the “HeLa-ACE2 SI” value is 2.32. Besides, the “Calu-3 SI” value in data set [3] (ratio CC50 / EC50) is reported as > 12.51.

Regarding `CO[C@H]1C[C@H](O[C@H]2CC[C@]3(C=O)[C@H]4CC[C@]5(C)[C@@H](C6=CC(=O)OC6)CC[C@]5(O)[C@@H]4CC[C@]3(O)C2)O[C@H](C)[C@H]1O` [Cymarine], the “HeLa-ACE2 SI” value in data set [1] is on record as 1.21. Besides, the “Calu-3 SI” value in data set [3] (ratio CC50 / EC50) is reported as > 43.54.

`C[C@H]1O[C@@H](O[C@H]2[C@@H](O)C[C@H](O[C@H]3[C@@H](O)C[C@H](O[C@H]4CC[C@@]5(C)[C@H](CC[C@@H]6[C@@H]5C[C@@H](O)[C@]5(C)[C@@H](C7=CC(=O)OC7)CC[C@]65O)C4)O[C@@H]3C)O[C@@H]2C)C[C@H](O)[C@@H]1O` [Digoxin]: the “HeLa-ACE2 SI” value in data set [1] is given as 0.72. Also, the “TOA:HeLa-ACE2 EC50 Ratio” value in data set [2] is 4.769. The “Calu-3 SI” value in data set [3] (ratio CC50 / EC50) is > 29.80.

In the case of `CNC(=O)n1ccc2cc(Oc3ccnc(NC(=O)c4ccc(C5CCN(CCO)CC5)cc4)c3)c(OCCOC)cc21` [E-7090], in data set [1] (setting [9]), the “HeLa-ACE2 SI” value stood at 8.01. Moreover, the “Calu-3 SI” value in data set [3] (setting [6]) was 19.87.

With `O=C(Nc1ccc(Cl)c(S(=O)(=O)N2CCNCC2)c1O)Nc1cccc(F)c1Cl` [Elubrixin tosylate], the “Calu-3 SI” value in data set [3] (setting [8]) is on record as > 4.28.

Turning to `CC[C@H]1CN2CCc3cc(OC)c(OC)cc3[C@@H]2C[C@@H]1C[C@H]1NCCc2cc(OC)c(OC)cc21` [Emetine], the “HeLa-ACE2 SI” value in data set [1] turned out to be 5.66. For the same molecule, in data set [3] (ratio CC50 / EC50), the “Calu-3 SI” value is > 19.97.

As to `N#Cc1cccc(C(C(=O)NCC(c2ccccc2)c2ccccc2)N(CCc2c[nH]cn2)C(=O)c2ccccc2C(=O)c2ccccc2)c1` (centres unmarked) [GENZ-29155], the “HeLa-ACE2 SI” value in data set [1] (setting [7]) came to 4.01. The “Calu-3 SI” value in data set [3] (setting [8]) is > 6.41.

For `CCCCCCCC/C=C/CCCCCCCC(=O)OC[C@H]1O[C@@H](n2ccc(N)nc2=O)C(F)(F)[C@@H]1O` [Gemcitabine elaidate], in data set [1] (setting [9]), the “HeLa-ACE2 SI” value is on record as 0.000607. For the same molecule, the “Calu-3 SI” value in data set [3] (setting [6]) is reported as > 92.27.
